Results of unrelated studies side by side (data: NIAID ChemDB).

Common to all: growth or infection tests; species: Mycobacterium avium complex

Lines come from different laboratories, so protocols vary.

| smiles | endpoint | strain | value |
|---|---|---|---|
| CC[C@H]1OC(=O)[C@H](C)[C@@H](O[C@H]2C[C@@](C)(OC)[C@@H](OC(C)=O)[C@H](C)O2)[C@H](C)[C@@H](O[C@@H]2O[C@H](C)C[C@H](N(C)C)[C@H]2OC(=O)NN(C)Cc2ccccc2)C(C)(O)C[C@@H](C)/C(=N\OCCCC2CCCCC2)[C@H](C)[C@@H](O)[C@]1(C)O | MIC | 20092 (clarithromycin-resistant) | 12.5 µg/mL |
| O=C1c2cc(I)ccc2-n2c1nc1c(Br)cc(Br)c(F)c1c2=O | MIC | 19075 | 1 µg/mL |
| CCCCCNC(=O)O[C@H]1C(O[C@@H]2[C@@H](C)[C@H](O[C@H]3C[C@@](C)(OC)[C@@H](OC(C)=O)[C@H](C)O3)[C@@H](C)C(=O)O[C@H](CC)[C@@](C)(O)[C@H](O)[C@@H](C)/C(=N/OCCCC3CCCCC3)[C@H](C)CC2(C)O)O[C@H](C)C[C@@H]1N(C)C | MIC | 20045 | 0.2 µg/mL |
| CCO/N=C1\[C@H](C)CC(C)(O)[C@H](O[C@@H]2O[C@H](C)C[C@H](N(C)C)[C@H]2O)[C@@H](C)[C@H](O[C@H]2C[C@@](C)(OC)[C@@H](OC(C)=O)[C@H](C)O2)[C@@H](C)C(=O)O[C@H](CC)[C@@](C)(O)[C@H](O)[C@H]1C | MIC | 20096 (clarithromycin-resistant) | >50 µg/mL |
| O=C1c2cc(I)ccc2-n2c1nc1c(Br)cc(Br)c(Cl)c1c2=O | MIC | 19075 | 1 µg/mL |
| CO[C@H]1/C=C/O[C@@]2(C)Oc3c(C)c(O)c4c(=O)c(c5oc6cc(N7CCN(CC(C)C)CC7)cc(=O)c6nc5c4c3=C2O)NC(=O)/C(C)=C\C=C\[C@H](C)[C@H](O)[C@@H](C)[C@@H](O)[C@@H](C)[C@H](OC(C)=O)[C@@H]1C | MIC | N-251 (HIV-) | 0.0625 µg/mL |
| C[C@@H]1CN(c2c(F)c(N)c3c(=O)c(C(=O)O)cn(C4CC4)c3c2F)C[C@H](C)N1 | MIC | CIPT 140310030 | 1.5 µg/mL |
| COc1cccc2c(=O)n3c(nc12)C(=O)c1cc(I)ccc1-3 | MIC | 19075 | 1 µg/mL |
| C#CCNC(=O)O[C@H]1C(O[C@@H]2[C@@H](C)[C@H](O[C@H]3C[C@@](C)(OC)[C@@H](OC(C)=O)[C@H](C)O3)[C@@H](C)C(=O)O[C@H](CC)[C@@](C)(O)[C@H](O)[C@@H](C)/C(=N/OCCCC3CCCCC3)[C@H](C)CC2(C)O)O[C@H](C)C[C@@H]1N(C)C | MIC | 20045 | 0.2 µg/mL |
| CC[C@H]1OC(=O)[C@H](C)[C@@H](O[C@H]2C[C@@](C)(OC)[C@@H](O)[C@H](C)O2)[C@H](C)[C@@H](O[C@@H]2O[C@H](C)C[C@H](N(C)C)[C@H]2O)[C@](C)(OC)C[C@@H](C)C(=O)[C@H](C)[C@@H](O)[C@]1(C)O | MBC | N-444 | 32 µg/mL |
| CCNC(=O)O[C@H]1C(O[C@@H]2[C@@H](C)[C@H](O[C@H]3C[C@@](C)(OC)[C@@H](OC(C)=O)[C@H](C)O3)[C@@H](C)C(=O)O[C@H](CC)[C@@](C)(O)[C@H](O)[C@@H](C)/C(=N/OCCCC3CCCCC3)[C@H](C)CC2(C)O)O[C@H](C)C[C@@H]1N(C)C | MIC | 20034 | >50 µg/mL |
| CCCCCCCCc1ccc2c(c1)C(=O)c1nc3c(OC)cccc3c(=O)n1-2 | MIC | 19075 | 5 µg/mL |
| CC/C=C/CCNC(=O)O[C@H]1C(O[C@@H]2[C@@H](C)[C@H](O[C@H]3C[C@@](C)(OC)[C@@H](OC(C)=O)[C@H](C)O3)[C@@H](C)C(=O)O[C@H](CC)[C@@](C)(O)[C@H](O)[C@@H](C)/C(=N/OCCCC3CCCCC3)[C@H](C)CC2(C)O)O[C@H](C)C[C@@H]1N(C)C | MIC | 20045 | 0.2 µg/mL |
| CCCCCCCCCCC(=O)O[C@H]1[C@H](C)OC(O[C@H]2[C@H](C)[C@@H](O[C@@H]3O[C@H](C)C[C@H](N(C)C)[C@H]3O)C(C)(O)C[C@@H](C)/C(=N\OCCCOc3ccccc3)[C@H](C)[C@@H](O)[C@](C)(O)[C@@H](CC)OC(=O)[C@@H]2C)C[C@@]1(C)OC | MIC | 20096 (clarithromycin-resistant) | >50 µg/mL |
| CC(=O)OCCCC/C=C/c1ccc2nc3n(c(=O)c2c1)-c1ccc(Cl)cc1C3=O | MIC | 19075 | 0.5 µg/mL |
| CC[C@H]1OC(=O)[C@H](C)[C@@H](O[C@H]2C[C@@](C)(OC)[C@@H](OC(C)=O)[C@H](C)O2)[C@H](C)[C@@H](OC2O[C@H](C)C[C@H](N(C)C)[C@H]2OC(=O)NC)C(C)(O)C[C@@H](C)/C(=N\OCCCC2CCCCC2)[C@H](C)[C@@H](O)[C@]1(C)O | MIC | 20092 | 50 µg/mL |
| CC[C@H]1OC(=O)[C@H](C)[C@@H](OC2C[C@@](C)(OC)[C@@H](O)[C@H](C)O2)[C@H](C)[C@@H](O[C@@H]2O[C@H](C)C[C@H](N(C)C)[C@H]2O)C(C)(OC)C[C@@H](C)/C(=N\OCCCOc2ccccc2)[C@H](C)[C@@H](O)[C@]1(C)O | MIC | 20096 (clarithromycin-resistant) | 6.25 µg/mL |
| CO[C@H]1/C=C/O[C@@]2(C)Oc3c(C)c(O)c4c(O)c(c5c(c4c3C2=O)NC2(CCN(CC(C)C)CC2)N=5)=NC(=O)/C(C)=C\C=C\[C@H](C)[C@H](O)[C@@H](C)[C@@H](O)[C@@H](C)[C@H](OC(C)=O)[C@@H]1C | MIC | N-251 (HIV-) | 1 µg/mL |
| O=C1c2cc(F)ccc2-n2c1nc1cc(F)c(F)cc1c2=O | MIC | 101 | <0.2 µg/mL |
| CC[C@H]1OC(=O)[C@H](C)[C@@H](O[C@H]2C[C@@](C)(OC)[C@@H](O)[C@H](C)O2)[C@H](C)[C@@H](O[C@@H]2O[C@H](C)C[C@H](N(C)C)[C@H]2O)[C@](C)(OC)C[C@@H](C)C(=O)[C@H](C)[C@@H](O)[C@]1(C)O | MIC | N-979 (HIV+) | 2 µg/mL |
| CC1(C)N=C(N)N=C(N)N1OCCCOc1cc(Cl)c(Cl)cc1Cl | MIC | JWT005A | 1 µg/mL |
| O=C1c2c(cccc2C(F)(F)F)-n2c1nc1ccncc1c2=O | MIC | 19075 | 5 µg/mL |

2 of the rows above, restated:

CCCCCNC(=O)O[C@H]1C(O[C@@H]2[C@@H](C)[C@H](O[C@H]3C[C@@](C)(OC)[C@@H](OC(C)=O)[C@H](C)O3)[C@@H](C)C(=O)O[C@H](CC)[C@@](C)(O)[C@H](O)[C@@H](C)/C(=N/OCCCC3CCCCC3)[C@H](C)CC2(C)O)O[C@H](C)C[C@@H]1N(C)C ; endpoint: MIC ; strain: 20045 ; value: 0.2 µg/mL
C#CCNC(=O)O[C@H]1C(O[C@@H]2[C@@H](C)[C@H](O[C@H]3C[C@@](C)(OC)[C@@H](OC(C)=O)[C@H](C)O3)[C@@H](C)C(=O)O[C@H](CC)[C@@](C)(O)[C@H](O)[C@@H](C)/C(=N/OCCCC3CCCCC3)[C@H](C)CC2(C)O)O[C@H](C)C[C@@H]1N(C)C ; endpoint: MIC ; strain: 20045 ; value: 0.2 µg/mL